Values of other authors, collected in patent US6991818B2, “Compound iso-squamocin obtained from seeds of annona squamosa and composition containing the same” (Council of Scientific & Industrial Research, priority 2001, dated 2006).

Tested on: yellow fever mosquito Aedes aegyptii
Details: cited from earlier work

asimicin/squamocin-H
LC 50: 2.7 mg/lit^−1
